Assays:
[1] = molecular target: T1, SARS-CoV-2 spike ectodomain (Se) (SARS-CoV-2, UniProt P0DTC2 14-1213); experiment: SPR
[2] = molecular target: T1, SARS-CoV-2 spike ectodomain (Se); experiment: SPR; remark: listed apart in the source

B1: Rhinolophus pusillus bat ACE2 ectodomain (residues 18 to 615) (domain or fragment)
chain: QSITEDKAKKFLNDFNSEAEDLSYQSSLASWDYNTNISDENVQKMDEAGAKWSAFYEEQSKIAKNYPLEEIQTDIVKRQLQILQQSGSPVLSEDKSKRLNSILNAMSTIYSTGKVCKPNNPQECLLLEPGLDNIMGTSKDYHERLWAWEGWRAEVGKQLRPLYEEYVVLKNEMARGYHYEDYGDYWRRDYETEESSGPGYSRDQLMKDVDRIFTEIKPLYEHLHAYVRAKLMDTYPLHISPTGCLPAHLLGDMWGRFWTNLYPLTVPFGQKPNIDVTDEMVKQGWDANRIFKEAEKFFVSVGLPNMTEGFWNNSMLTEPGDGRKVVCHPTAWDLGKGDFRIKMCTKVTMEDFLTAHHEMGHIQYDMAYASQPYLLRNGANEGFHEAVGEVMSLSVATPKHLKTMGLLSPDFREDDETEINFLLKQALNIVGTLPFTYMLEKWRWMVFKGEIPKEEWMKKWWEMKREIVGVVEPVPHDETYCDPASLFHVANDYSFIRYYTRTIFEFQFHEALCRIAQHNGPLHKCDISNSTDAGKKLHQMLSVGKSQAWTKTLEDIVGSRNMDVGPLLRYFKPLYTWLQEQSRKSYVGWNTDWSPYSD
[1]
  Kd: 26.9 nM
[2]
  koff: 0.0112 s⁻¹

Source: publication PMC12363188 (2025)
